These results are taken from paper PMC4942610, “Exploration of acetanilide derivatives of 1-(ω-phenoxyalkyl)uracils as novel inhibitors of Hepatitis C Virus replication” (Scientific Reports, 2016).

For the data set, the system named is HCVcc gt 2a strain JFH-1. Put plainly: HCVcc JFH-1 infection of Huh7-J20 reporter cells, second protocol (full life cycle), SEAP dose-response. Type of data set: cell-based, Hepatitis C Virus. The following applies: for SI: ratio of CC50 on IC50, Huh7-J20, JFH-1; for increase of SI compared to Z436: from SI of Table 1.

“And” between values parts separate entries of the source, which are not always exact repeats. Identical values can stand only once.

Take `O=C(Cn1c(=O)ccn(Cc2ccccc2)c1=O)Nc1ccc(Oc2ccccc2)cc1` [Z176]: the SI was found to be 13.174.

As to `O=C(Cn1c(=O)ccn(CCCCCOc2ccc(Br)cc2)c1=O)Nc1ccc(Oc2ccccc2)cc1` [Z263], the “increase of SI compared to Z436” value is given as 5 fold and the SI is given as 18.174.

Take `Cc1cn(CCCCCOc2ccc(Br)cc2)c(=O)n(CC(=O)Nc2ccc(Oc3ccccc3)cc2)c1=O` [Z376]: the SI came to 31.761.

Regarding `O=C(Cn1c(=O)ccn(CCCCCOc2ccc(Br)cc2)c1=O)Nc1ccc(OCc2ccccc2)cc1` [Z377], the SI came to 6.196.

Turning to `O=C(Cn1c(=O)ccn(CCCCCOc2ccc(Br)cc2)c1=O)Nc1ccc(Oc2ccc(Cl)cc2)cc1` [Z385], the SI was > 100 and 101.145. Under “from IC50 of Table 1”, the “increase of anti-HCV activity compared to Z263” value (“increase of anti-HCV activity” for short) is 6 fold.

As to `O=C(Cn1c(=O)ccn(CCCCCOc2ccc(Br)cc2)c1=O)Nc1ccc(Cc2ccccc2)cc1` [Z387], the SI is > 100 and 185.482.

Regarding `O=C(Cn1c(=O)ccn(CCCCOc2ccc(Br)cc2)c1=O)Nc1ccc(Oc2ccccc2)cc1` [Z397], the SI is on record as 20.715.

Take `O=C(Cn1c(=O)ccn(CCCCCCOc2ccc(Br)cc2)c1=O)Nc1ccc(Oc2ccccc2)cc1` [Z400]: the SI is > 200 and 273 and 273.569.

As for `O=C(Cn1c(=O)ccn(CCCCCCCCOc2ccc(Br)cc2)c1=O)Nc1ccc(Oc2ccccc2)cc1` [Z401], the SI is > 200 and 244 and 244.238.

With `Cc1ccc(Oc2ccc(NC(=O)Cn3c(=O)ccn(CCCCCOc4ccc(Br)cc4)c3=O)cc2)cc1` [Z413], the SI was determined as 87.166. The “increase of anti-HCV activity” value (from IC50 of Table 1) is 10 fold.

For `O=C(Cn1c(=O)ccn(CCCCCOc2ccc(Br)cc2)c1=O)Nc1ccc(Oc2ccc(F)cc2)cc1` [Z414], the SI was determined as 48.612. Also, the “increase of anti-HCV activity” value (from IC50 of Table 1) was around 5 fold.

Take `O=C(Cn1c(=O)ccn(CCCCCOc2cccc(Br)c2)c1=O)Nc1ccc(Oc2ccccc2)cc1` [Z421]: the “increase of SI compared to Z436” value is reported as 10 fold and the SI was 38.548. Also, under “from IC50 of Table 1”, the “increase of inhibitory activity compared to Z436” value came out at 3 times.

Consider `O=C(Cn1c(=O)ccn(CCCCCOc2ccc(Br)cc2)c1=O)Nc1ccc(C(=O)c2ccccc2)cc1` [Z430], for which the SI is 12.173.

`CN(C(=O)Cn1c(=O)ccn(CCCCCOc2ccc(Br)cc2)c1=O)c1ccc(Oc2ccccc2)cc1` [Z431]: the SI is 5.348.

Regarding `O=C(Cn1c(=O)ccn(CCCCOCc2ccc(Br)cc2)c1=O)Nc1ccc(Oc2ccccc2)cc1` [Z432], the SI was found to be 14.942.

As to `N#Cc1ccc(OCCCCCn2ccc(=O)n(CC(=O)Nc3ccc(Oc4ccccc4)cc3)c2=O)cc1` [Z434], the SI was found to be 5.661.

In the case of `O=C(Cn1c(=O)ccn(CCCCCOc2ccccc2)c1=O)Nc1ccc(Oc2ccccc2)cc1` [Z436], the SI is reported as 3.595.

`O=C(Cn1c(=O)ccn(CCCCCCc2ccccc2)c1=O)Nc1ccc(Oc2ccccc2)cc1` [Z437]: the SI is recorded as 5.029.

Regarding `O=C(Cn1c(=O)ccn(CCCCCOc2ccc(-c3ccccc3)cc2)c1=O)Nc1ccc(Oc2ccccc2)cc1` [Z438], the SI is reported as 5.534.

For `O=C(Cn1c(=O)c(I)cn(CCCCCOc2ccc(Br)cc2)c1=O)Nc1ccc(Oc2ccccc2)cc1` [Z439], the SI worked out at 7.977.
